According to patent publication US20260234738A1:

B1: mAb10915 (antibody)
heavy: EVQLVESGGGLVQPGGSLRLSCAASGFTVSSNYMNWVRQAPGKGLEWVSVIYSGGSTFYADSVKGRFTISRHNSKNTLYLQMNSLRPEDTAVYYCARDLGGYFDYWGQGTLVTVSSASTKGPSVFPLAPSSKSTSGGTAALGCLVKDYFPEPVTVSWNSGALTSGVHTFPAVLQSSGLYSLSSVVTVPSSSLGTQTYICNVNHKPSNTKVDKKV[human IgG1 Fc left out]
light: [about 100 residues left out][about 120 residues left out]
B2: mAb10920 (antibody)
heavy: QVQLVESGGGVVQPGRSLRLSCAASGFTFSYYGMHWVRQAPGKGLEWVAVIWYDGSNKFYADSVKGRFTISRDNSKNTLYLQMNSLRAEDTAVYYCAAARPGYYYGMDVWGQGTTVTVSSASTKGPSVFPLAPSSKSTSGGTAALGCLVKDYFPEPVTVSWNSGALTSGVHTFPAVLQSSGLYSLSSVVTVPSSSLGTQTYICNVNHKPSNTKVDKKV[human IgG1 Fc left out]
light: DIQMTQSPSSLSASVGDRVTITCRASQGISNYLAWFQQKPGKAPNSLIYAASSLQRGVPSKFSGSGSGTDFTLTISSLQPEDFATYYCQQYNSYPRTFGQGTKVEIKRTVAAPSVFIFPPSDEQLKSGTASVVCLLNNFYPREAKVQWKVDNALQSGNSQESVTEQDSKDSTYSLSSTLTLSKADYEKHKVYACEVTHQGLSSPVTKSFNRGEC
B3: mAb10921 (antibody)
heavy: EVQLVESGGGLVQPGGSLRLSCAASGITVSSNYMSWVRQAPGKGLEWVSVIYSGGSTFYADSVKGRFTISRHNSKNTLYLQMNSLRAEDTAVYYCARERNFDAFDIWGQGTMVTVSSASTKGPSVFPLAPSSKSTSGGTAALGCLVKDYFPEPVTVSWNSGALTSGVHTFPAVLQSSGLYSLSSVVTVPSSSLGTQTYICNVNHKPSNTKVDKKV[human IgG1 Fc left out]
light: DIQMTQSPSSVSASVGDRVTITCRASQGISSWLAWYQQKPGKAPKLLIYAASSLQSGVPSRFSGSGSGTDFTLTISSLQPEDFATYYCQQANSFPLFTFGPGTKVDIKRTVAAPSVFIFPPSDEQLKSGTASVVCLLNNFYPREAKVQWKVDNALQSGNSQESVTEQDSKDSTYSLSSTLTLSKADYEKHKVYACEVTHQGLSSPVTKSFNRGEC
B4: mAb10965 (antibody)
heavy: EVQLVESGGGLIQPGGSLRLSCAASVFTVSYNYMSWVRQAPGKGLEWVSVIYSGGSTYYADSVKGRFTISRDNSKNTLYLQMNSLRAEDTAVYYCARALPGWGGSFEYFDYWGQGTLVTVSSASTKGPSVFPLAPSSKSTSGGTAALGCLVKDYFPEPVTVSWNSGALTSGVHTFPAVLQSSGLYSLSSVVTVPSSSLGTQTYICNVNHKPSNTKVDKKV[human IgG1 Fc left out]
light: [about 100 residues left out][about 100 residues left out]
B5: mAb10955 (antibody)
heavy: EVQLVESGGGLVQPGGSLRVSCAASGFTVSRNYMSWVRQAPGKGLEWVSVIYSGGSTFYADSVKGRFTISRDNSKNTLYLQMNSLRAEDTAIYYCARYIPRFDPWGQGTLVTVSSASTKGPSVFPLAPSSKSTSGGTAALGCLVKDYFPEPVTVSWNSGALTSGVHTFPAVLQSSGLYSLSSVVTVPSSSLGTQTYICNVNHKPSNTKVDKKV[human IgG1 Fc left out]
light: DIQMTQSPSSLSASVGDRVTITCQASQDISNYLNWFQQKPGRAPKLLIYDASNLETGVPSRFSGSGSGTDFTFTISSLQPEDIATYYCQQYDNLPITFGQGTRLEIKRTVAAPSVFIFPPSDEQLKSGTASVVCLLNNFYPREAKVQWKVDNALQSGNSQESVTEQDSKDSTYSLSSTLTLSKADYEKHKVYACEVTHQGLSSPVTKSFNRGEC
B6: mAb11010 (antibody)
heavy: QVQLVESGGGVVQPGRSLRLSCAASGFTFSSYGMHWVRQAPGKGLEWVAVISYDGSYKYYADSVKGRFTISRDNSKNTLYLQMNSLRAEDTAVYYCAIDGGTVTTIFDYWGQGTLVTVSSASTKGPSVFPLAPSSKSTSGGTAALGCLVKDYFPEPVTVSWNSGALTSGVHTFPAVLQSSGLYSLSSVVTVPSSSLGTQTYICNVNHKPSNTKVDKKV[human IgG1 Fc left out]
light: [about 100 residues left out][about 120 residues left out]

Molecular target: SARS-COV-2 RBD-MMH (SARS-CoV-2)
Assay: SPR
Settings: remark: other sources report otherwise

Binder | Kd [nM] | t½ [min]
B1 | 3.59 | 36.3
B2 | 35.4 | 0.5
B3 | 5.24 | 23.1
B4 | 22.8 | 4.2
B5 | 19.5 | 4.3
B6 | 4.42 | 7.8
